Where a SMILES comes first, the peptide text is derived from it. Where no end group is shown, it is not given here.
Assay: Circular dichroism, alpha-helical content
Type: physicochemical
Conditions: 225 nm; for Alpha helix (%), Buffer: 10 mM Tris buffer pH 7.4, 10 μM peptide; for Alpha helix (%), Micelles: 16:0 lyso-phosphatidylglycerol micelles, 1:1 peptide-to-micelle ratio

CC[C@H](C)[C@@H]1NC(=O)[C@H](CCCCN)NC(=O)[C@H](CC(=O)O)NC(=O)[C@H](Cc2ccccc2)NC(=O)[C@H](CC(C)C)NC(=O)[C@H](CCCNC(=N)N)NC(=O)CNC(=O)CNC(=O)[C@H](CS)NC(=O)CNC(=O)[C@H](CCCCN)NC(=O)[C@H](CCCNC(=N)N)NC(=O)[C@H]([C@@H](C)CC)NC(=O)[C@H](C(C)C)NC(=O)[C@H](CCC(N)=O)NC(=O)[C@H](CCCNC(=N)N)NC(=O)[C@H]([C@@H](C)CC)NC(=O)[C@H](CCCCN)NC(=O)[C@H](CC(=O)O)NC(=O)[C@H](Cc2ccccc2)NC(=O)[C@H](CC(C)C)NC(=O)[C@H](CCCNC(=N)N)NC(=O)CNC(=O)CNC(=O)[C@H](C)NC(=O)CNC(=O)[C@H](CCCCN)NC(=O)[C@H](CCCNC(=N)N)NC(=O)[C@H]([C@@H](C)CC)NC(=O)[C@H](C(C)C)NC(=O)[C@H](CCC(N)=O)NC(=O)[C@H](CCCNC(=N)N)NC1=O [Peptide 2retro-cd4] (cyclo(CGGRLFDKIRQVIRKGAGGRLFDKIRQVIRKG))
Alpha helix (%), Buffer: 30% | Alpha helix (%), Micelles: 53%

KRIVQRIKDFLR [KR-12]
Alpha helix (%), Buffer: 12% | Alpha helix (%), Micelles: 52%

Reference: PMC7046553, “Backbone Cyclization and Dimerization of LL-37-Derived Peptides Enhance Antimicrobial Activity and Proteolytic Stability” (Frontiers in Microbiology, 2020)
